Anti-infective test results gathered from many reports (values: NIAID ChemDB through PubChem).

All rows: tests in culture; organism: Cryptococcus neoformans; endpoint: MIC

Neighbouring rows are from separate reports.

SMILES,strain,method,result
C[C@@H]1[C@H](O)[C@@H](C)/C=C/C=C/CC/C=C/C=C/C=C/C=C/C(O[C@H]2O[C@H](C)[C@@H](O)[C@H](N)[C@@H]2O)CC2O[C@](O)(CC(O)C(O)CCC(O)CC(O)CC(O)CC(=O)O[C@H]1C)CC(O)C2C(=O)O,IP 90526,broth dilution,6.25 µg/mL
COc1cccc(C(=O)/C=C/c2cc3ccccc3cc2OC)c1,ATCC 32264,-,>50 µg/mL
C=CC[C@@H]1/C=C(/C)C[C@H](C)C[C@H](OC)[C@H]2O[C@@](O)(C(=O)C(=O)N3CCCC[C@H]3C(=O)O[C@H](/C(C)=C/[C@@H]3CC[C@@H](O)[C@H](OC)C3)[C@H](C)[C@@H](O)CC1=O)[C@H](C)C[C@@H]2OC,H99 ΔCNA1 mutant,-,>25 µg/mL
COc1cc2cc(/C=C/C(=O)c3ccc(Cl)cc3)c(Cl)nc2cc1OC,ATCC 32264,-,>50 µg/mL
NC(=O)OC[C@H](O)[C@@H](O)[C@H](N)C(=O)N[C@H](C(=O)O)[C@H]1O[C@@H](n2cc(C(=O)O)c(=O)[nH]c2=O)[C@H](O)[C@@H]1O,ATCC 36556,-,>100 µg/mL
COc1cc(O)c2c(c1)C(=O)c1c(cc3c(c1O)-c1c(cc(C)c(C(=O)N[C@H](CO)C(=O)O)c1O)[C@H](O[C@@H]1O[C@H](C)[C@H](O)[C@H](O)[C@H]1O)[C@H]3O)C2=O,D49,-,1.6 µg/mL
CC[C@H]1OC(=O)C=C2C1=CC1OC(=O)[C@@]3(C)CCC[C@@]2(C)[C@@H]13,ATCC90112,-,4 µg/mL
COc1cccc(/C=C/C(=O)c2ccccc2)c1OC,ATCC 32264,-,>50 µg/mL
COC[n+]1c2ccccc2cc2[nH]c3ccccc3c21,ATCC 52657,-,31.2 µg/mL
COCC1(C)OCC(CNCC(C)Cc2ccc(C(C)(C)C)cc2)O1,17-1-2,-,17.5 µM
CCN1C2=NC[C@H](Cc3ccccc3)N2C[C@@H]1C1CCCCC1,ATCC 32045,-,>25 µg/mL
CC(C)[C@@H](C)/C=C/[C@@H](C)[C@H]1CCC2=C3[C@@H](O)C4OC45C[C@@H](OC(=O)[C@@H](N)[C@@H](OS(=O)(=O)O)C(C)C)CC[C@]5(C)[C@H]3CC[C@@]21C(=O)O,MY2062,-,>32 µg/mL
C[C@@H]1O[C@@H](Oc2c(-c3ccc(O)c(O)c3)oc3cc(O)cc(O)c3c2=O)[C@H](O)[C@H](O)[C@H]1O,ATCC 208821,broth dilution,100 µg/mL
COc1cc(O)c2c(c1)C(=O)c1c(cc3c(c1O)-c1c(cc(C)c(C(=O)NC(C)C(=O)O)c1O)[C@H](OC1OC(C)C(F)C(O)C1O)[C@H]3O)C2=O,IAM 4514,-,12.5 µg/mL
[CH3][Sn]([CH3])([CH3])[NH]C(Cc1c[nH]c2ccccc12)C(=O)O,-,-,50 µg/mL
N#[N+]c1nc[nH]c1C(=O)N1CCCC1,L29,-,50 µg/mL
COC(=O)[C@]12CCC(C)(C)C=C1C1CCC3[C@@]4(C)CCC(=O)C(C)(C)C4CC[C@@]3(C)[C@]1(C)CC2,ATCC 208821,broth dilution,50 µg/mL
Oc1cccc2c1CC(Nc1ccccc1)CC2,-,-,16 µM
COc1ccc(OC)c2c1CCc1[se]nnc1-2,-,-,12.5 µg/mL
COc1ccc(C(OC)C(O)c2cc(OC)c(OC)c(OC)c2)cc1,IP 90526,broth dilution,100 µg/mL
CNC1C(C)OC(O[C@H]2c3cc(C)c(C(=O)NC(C)C(=O)OC)c(OC4OC(CO)C(O)C(O)C4O)c3-c3c(cc4c(c3O)C(=O)c3cc(OC)cc(O)c3C4=O)[C@@H]2O)C(O)C1OC1OC(CO)C(O)C(O)C1O,IAM 4514,-,0.8 µg/mL
Cc1ccc(-c2nc([N+]#N)c(C(=O)N3CCCC3)[nH]2)cc1,L29,-,50 µg/mL
C1CCC(C[C@@H]2CN=C3N2C[C@H](C2CCCCC2)N3CCC23CC4CC(CC(C4)C2)C3)CC1,ATCC 32045,-,4–8 µg/mL
c1ccc(-c2ccc(C(c3ccccc3)n3ccnc3)cc2)cc1,3 strains,-,0.67 µg/mL
COc1cc(O)c2c(c1)C(=O)c1c(cc3c(c1O)-c1c(cc(C)c(C(=O)NC(C)C(=O)O)c1O)[C@H](OC1OCC(O)C(O)C1O)[C@H]3O)C2=O,IAM 4514,-,>100 µg/mL
COc1cc(O)c2c(c1)OC(c1ccc(O)cc1)CC2=O,JEC21,broth dilution,80 µg/mL
OC(Cn1cncn1)(Cn1cncn1)c1ccc(F)cc1F,H99 ΔCNA1 mutant,-,6.25 µg/mL
CC1(C)C=C2C3CCC4[C@@]5(C)CCC(=O)C(C)(C)C5CC[C@@]4(C)[C@]3(C)CC[C@@]2(C(=O)O)CC1,ATCC 208821,broth dilution,200 µg/mL
CC/C=C/C(CC)CCC[C@@]1(CC)C[C@H](CC)[C@H](CC(=O)O)OO1,-,-,5 µg/mL
CC(C/C=C/C=C/CC/C=C\C=C\CCC(C)(C)C)C(O)C(O)C(O)C(O)C(O)C1OC(=O)C(O)C1O,D49,-,3.1 µg/mL
CN[C@@H]1[C@H](O)[C@@H](O)[C@H](O[C@H]2c3cc(C)c(C(=O)N[C@H](C)C(=O)O)c(O)c3-c3c(cc4c(c3O)C(=O)c3cc(OC)cc(O)c3C4=O)[C@@H]2O)O[C@@H]1C,D49,-,0.8 µg/mL
C=C(Cl)/C=C/[C@H](O)CC(=C)C[C@H]1OC2[C@@H](O)[C@]3(O)C[C@@H](O)[C@H](C)[C@H](CCC/C=C\[C@@H]4C[C@@H](O)C[C@]5(C[C@H](OC)CC(CC(=O)[C@@H](C)[C@H](OC(C)=O)[C@@H](C)C(=C)C[C@@H]6C[C@@](C)(O)C[C@]7(C[C@H](OC(C)=O)CC(CC(=O)O[C@@H]([C@@H]1O)[C@H]2C)O7)O6)O5)O4)O3,ATCC66031,-,0.0195 µg/mL
CCC[CH2][Sn]([CH2]CCC)([NH]C(Cc1c[nH]c2ccccc12)C(=O)O)[O]C(=O)C(N)Cc1c[nH]c2ccccc12,-,-,12.5 µg/mL
COC(=O)C(C(=O)OC)C(CC(=O)c1ccccc1)c1cccc(OC)c1OC,ATCC 32264,-,>50 µg/mL
N#[N+]c1nc(-c2ccccc2Cl)[nH]c1C(=O)N1CCCC1,L29,-,50 µg/mL
COc1cc(O)c2c(c1)C(=O)c1c(cc3c(c1O)-c1c(cc(C)c(C(=O)NC(C)C(=O)O)c1O)[C@H](OC1OC(C)CC(=O)C1O)[C@H]3O)C2=O,IAM 4514,-,6.3 µg/mL
c1ccc2c(c1)cc1[nH]c3ccccc3c1[n+]2CC1CC1,ATCC 52657,-,31.2 µg/mL
O=C(O)C(Cc1cnc[nH]1)[NH][Sn]([c]1ccccc1)([c]1ccccc1)[c]1ccccc1,-,-,<12.5 µg/mL
COc1ccc(C(=O)/C=C/c2ccc3ccccc3c2)c(OC)c1,ATCC 32264,-,>50 µg/mL
CCC(C)CC(C)CCCCCCCCC(=O)N[C@H]1C[C@@H](O)[C@H](NCCN)NC(=O)[C@@H]2[C@@H](O)CCN2C(=O)[C@H]([C@H](O)CCN)NC(=O)[C@H]([C@H](O)[C@@H](O)c2ccc(O)cc2)NC(=O)[C@@H]2C[C@@H](O)CN2C(=O)[C@H]([C@@H](C)O)NC1=O,MY2061,-,16 µg/mL
CCC[n+]1c2ccccc2cc2[nH]c3ccccc3c21,ATCC 52657,-,31.2 µg/mL
CCCCCCCCNC1CCc2cccc(O)c2C1,-,-,16 µM
C1CCC(C[C@H]2CN=C3N(CCC45CC6CC(CC(C6)C4)C5)[C@@H](CC4CCCCC4)CN32)CC1,ATCC 32045,-,8–16 µg/mL
C[C@@]12CCC[C@]3(C)C4=CC(=O)OC(O)[C@]45O[C@@H]5C(OC1=O)[C@@H]23,ATCC90112,-,>64 µg/mL
CC(C)(C)C1CCC(CN2C3=NC[C@H](Cc4ccccc4)N3C[C@@H]2Cc2ccccc2)CC1,ATCC 32045,-,4–8 µg/mL
COc1cc(O)c2c(c1)C(=O)c1c(cc3c(c1O)-c1c(cc(C)c(C(=O)NC(C)C(=O)O)c1O)[C@H](OC1OC(C)C(F)C(OC4OCC(O)C(O)C4O)C1O)[C@H]3O)C2=O,IAM 4514,-,12.5 µg/mL
COc1ccc(C(=O)CC(c2ccc3ccccc3c2)C(C#N)C#N)cc1OC,ATCC 32264,-,>50 µg/mL
C1CCC([C@H]2CN=C3N2C[C@@H](C2CCCCC2)N3CCC23CC4CC(CC(C4)C2)C3)CC1,ATCC 32045,-,4–8 µg/mL
CCCCCCCCCCCCNC1CCc2cccc(OC)c2C1,-,-,1 µM
CCCCc1nc([N+]#N)c(C(=O)N2CCCC2)[nH]1,L29,-,50 µg/mL
C1CCC([C@@H]2CN3C(=NC[C@H]3C3CCCCC3)N2CCC23CC4CC(CC(C4)C2)C3)CC1,ATCC 32045,-,8–16 µg/mL
c1ccc(CCCCC[n+]2c3ccccc3cc3[nH]c4ccccc4c32)cc1,ATCC 52657,-,1.9 µg/mL
COc1cc(O)c2c(c1)C(=O)c1c(cc3c(c1O)-c1c(cc(C)c(C(=O)N[C@H](C)C(=O)O)c1O)[C@H](O[C@@H]1O[C@H](C)[C@H](N)[C@H](O[C@@H]4OC[C@@H](O)[C@H](O)[C@@H]4O)[C@H]1O)[C@H]3O)C2=O,D49,-,1.6 µg/mL
COc1ccc(OC)c2c1CCc1snnc1-2,-,-,12.5 µg/mL
c1ccc2c(c1)cc1[nH]c3ccccc3c1[n+]2CC1CCC1,ATCC 52657,-,15.6 µg/mL
CC[C@H]1/C=C(\C)[C@H](O)[C@H](C)C[C@H](OC)[C@H]2O[C@@](O)(C(=O)C(=O)N3CCCC[C@H]3C(=O)O[C@H](/C(C)=C/[C@@H]3CC[C@@H](O)[C@H](OC)C3)[C@H](C)[C@@H](O)CC1=O)[C@H](C)C[C@@H]2OC,H99 ΔCNA1 mutant,-,>42 µg/mL
CCCCCCCCNC1CCc2cc(O)ccc2C1,-,-,32 µM
N#[N+]c1nc(-c2ccc(Cl)cc2)[nH]c1C(=O)N1CCCC1,L29,-,25 µg/mL
O=C(/C=C/c1ccccc1)c1ccccc1,ATCC 32264,-,>50 µg/mL
Cc1cccc(N(C)C(=S)Oc2ccc3ccccc3c2)c1,4 strains,-,>100 µg/mL
CCN1C2=NC[C@H](CC3CCCCC3)N2C[C@@H]1Cc1ccccc1,ATCC 32045,-,62–125 µg/mL
N#[N+]c1nc(-c2ccccc2F)[nH]c1C(=O)N1CCCC1,L29,-,200 µg/mL
COc1cc(O)c2c(c1)C(=O)c1c(cc3c(c1O)-c1c(cc(C)c(C(=O)NC(C)C(=O)O)c1O)[C@H](OC1OC(CO)C(O)C(O)C1O)[C@H]3O)C2=O,IAM 4514,-,>100 µg/mL
CC(CCC(O)C(C)(O)CO)C1(O)CCC2(C)C3=C(CCC21C)C1(C)CCC(OC(=O)CCC(=O)O)C(C)(C)C1CC3,MY2062,-,32 µg/mL
CCN1C2=NC[C@H](Cc3ccccc3)N2C[C@@H]1CC1CCCCC1,ATCC 32045,-,62–125 µg/mL
CC(=O)O[C@@H]1C[C@@]23C(=O)OC[C@](C)([C@@H]2CC[C@H]2C3=CC[C@@]3(C)[C@H](C(=O)O)[C@@](C)([C@H](C)C(C)C)CC[C@]23C)[C@H]1O[C@@H]1O[C@H](CO)[C@@H](O)[C@H](O)[C@H]1O,MY2062,-,>64 µg/mL
O=[N+]([O-])C1Cc2[se]nnc2-c2ccccc21,-,-,12.5 µg/mL
Cn1c2c3ccccc3nc-2cc2ccccc21,ATCC 52657,-,12.5–15.6 µg/mL
COc1cc(O)c(C(C)=O)c(OC)c1,-,-,>500 µg/mL

5 of the rows above, restated:

SMILES,strain,method,result
CCC[n+]1c2ccccc2cc2[nH]c3ccccc3c21,ATCC 52657,-,31.2 µg/mL
CC(C)(C)C1CCC(CN2C3=NC[C@H](Cc4ccccc4)N3C[C@@H]2Cc2ccccc2)CC1,ATCC 32045,-,4–8 µg/mL
CCCCCCCCNC1CCc2cc(O)ccc2C1,-,-,32 µM
COc1cc(O)c2c(c1)OC(c1ccc(O)cc1)CC2=O,JEC21,broth dilution,80 µg/mL
COc1ccc(C(=O)CC(c2ccc3ccccc3c2)C(C#N)C#N)cc1OC,ATCC 32264,-,>50 µg/mL

Two numbers with a dash give a range or band. An empty or dashed field is not shown.